Laboratory results: PubChem BioAssay AID504761 (Drosophila RNAi Screening Center, 2011)
Aim: 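Fly genes whose silencing reduces dengue virus type 2 infection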 (primary screen). System: D.Mel-2 cells from Drosophila. Reagent: long dsRNA against Drosophila genes. Treatment: infection with dengue virus type 2; dose and infection time not stated. Measurement: 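Per well on two replicate plates, imaging gave the percent of cells positive for viral envelope protein, ranked by infection, and a nuclear count of cells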. Reading the numbers: infection score: higher = more virus-infected cells; cell count: higher = more cells in the well. Rule for the call: 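Low infection ranks in the two replicates (chance level up to 0.065) followed by a retest with a 1.5-fold or larger significant decrease, p below 0.05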. Calls: active = confirmed: knock-down lowers infection; inactive = not picked or not confirmed.
In all, the deposit lists about 22,000 reagents; this is a random part of those with a known target gene and a result. In the full data, 116 (0.52%) are marked active. 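Calls depend on retest data that are not deposited; infection was ranked per plate without normalising between plates; the unit of the infection score is not given.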 Raw values are not corrected between plates. A plus sign joins genes that one reagent is predicted to hit. Further read-outs or replicates are left out here. Reagent sequences are not shown. Not stated in the record: the amount of reagent, the time to read-out.

| gene | dsRNA | infection score, replicate 1 | infection score, replicate 2 | cell count, replicate 1 | activity call |
| --- | --- | --- | --- | --- | --- |
| Root (Rootletin) | DRSC15972 | 2.81 | 5.49 | 6506 | inactive |
| CG6996 | DRSC10758 | 1.91 | 6.76 | 6541 | inactive |
| CG10459 | DRSC05991 | 8.89 | 12.2 | 6210 | inactive |
| CG10459 | DRSC22092 | 1.85 | 1.23 | 6523 | inactive |
| CG9029 | DRSC03129 | 10.9 | 9.41 | 4312 | inactive |
| CG6048 | DRSC18398 | 3.97 | 4.99 | 6076 | inactive |
| CG6048 | DRSC29218 | 9.75 | 4.98 | 2440 | inactive |
| CG6345 | DRSC16024 | 16.8 | 19.9 | 2676 | inactive |
| p53 | DRSC17024 | 4.31 | 13.7 | 6489 | inactive |
| CG31368 | DRSC14949 | 9.04 | 5.99 | 6228 | inactive |
| CG31368 | DRSC14951 | 10.6 | 9.16 | 5593 | inactive |
| CG14760 | DRSC06495 | 2.38 | 10.8 | 6308 | inactive |
| CG14760 | DRSC23957 | 8.49 | 8.65 | 3804 | inactive |
| cana + CG33695 | DRSC23517 | 4.44 | 1.86 | 6172 | inactive |
| GstE3 (Glutathione S transferase E3) | DRSC06673 | 12.2 | 13.9 | 3861 | inactive |
| Reph (Regulator of eph expression) | DRSC00634 | 1.75 | 2.39 | 6528 | inactive |
| Reph (Regulator of eph expression) | DRSC22031 | 1.9 | 6.67 | 6271 | inactive |
| Reph (Regulator of eph expression) | DRSC29417 | 9.71 | 5.99 | 5263 | inactive |
| CG12341 | DRSC06133 | 1.83 | 8.67 | 6705 | inactive |
| cyp33 (cyclophilin-33) | DRSC07600 | 7.98 | 5.07 | 5841 | inactive |
| CG15696 | DRSC15118 | 0.97 | 1.04 | 6568 | inactive |
| CG15696 | DRSC25170 | 1.09 | 5.54 | 6688 | inactive |
| Orco (Odorant receptor co-receptor) | DRSC12358 | 10.9 | 5.11 | 6425 | inactive |
| Orco (Odorant receptor co-receptor) | DRSC27061 | 8.46 | 13.5 | 6492 | inactive |
| yki (yorkie) | DRSC04437 | 31.9 | 25.2 | 6241 | inactive |
| yki (yorkie) | DRSC28304 | 20.3 | 15.2 | 3692 | inactive |
| CG9393 | DRSC16486 | 4.16 | 6.28 | 6964 | inactive |

4 neighbouring entries already listed, for reference:
| gene | dsRNA | infection score, replicate 1 | infection score, replicate 2 | cell count, replicate 1 | activity call |
| --- | --- | --- | --- | --- | --- |
| cana + CG33695 | DRSC23517 | 4.44 | 1.86 | 6172 | inactive |
| GstE3 (Glutathione S transferase E3) | DRSC06673 | 12.2 | 13.9 | 3861 | inactive |
| Reph (Regulator of eph expression) | DRSC00634 | 1.75 | 2.39 | 6528 | inactive |
| Reph (Regulator of eph expression) | DRSC22031 | 1.9 | 6.67 | 6271 | inactive |

Additional records:
| gene | dsRNA | infection score, replicate 1 | infection score, replicate 2 | cell count, replicate 1 | activity call |
| --- | --- | --- | --- | --- | --- |
| CG4752 | DRSC04486 | 13.8 | 14.1 | 5986 | inactive |
| CG4752 | DRSC27141 | 12.6 | 10.5 | 5938 | inactive |
| AsnS (Asparagine synthetase) | DRSC11468 | 3.74 | 2.58 | 6598 | inactive |
| CG14362 | DRSC14824 | 7.69 | 1.62 | 5998 | inactive |
| CG9289 | DRSC03187 | 5.28 | 2.69 | 6212 | inactive |
| CG9289 | DRSC28115 | 16.5 | 23.6 | 5167 | inactive |
| Rpt1 (Regulatory particle triple-A ATPase 1) | DRSC07542 | 8.89 | 3.06 | 967 | inactive |
| Stim (Stromal interaction molecule) | DRSC20158 | 6.28 | 14.5 | 6623 | inactive |
| CG34459 | DRSC06973 | 17.9 | 23.1 | 5111 | inactive |
| ebo (ellipsoid body open) | DRSC18787 | 1.91 | 10.2 | 6965 | inactive |
| ebo (ellipsoid body open) | DRSC28174 | 25.3 | 12.5 | 5916 | inactive |
| polyph (polyphemus) | DRSC06254 | 9.14 | 15.4 | 6937 | inactive |
| CG9609 | DRSC20199 | 4.39 | 17.2 | 6334 | inactive |
| CG9609 | DRSC26952 | 14.2 | 6.79 | 6145 | inactive |
| nito (spenito) | DRSC05943 | 19.4 | 14.4 | 4540 | inactive |
| CR33283 (pseudo) | DRSC22918 | 0.68 | 4.18 | 6463 | inactive |
| Npc2d (Niemann-Pick type C-2d) | DRSC14551 | 3.43 | 4.48 | 6059 | inactive |
| Npc2d (Niemann-Pick type C-2d) | DRSC28011 | 28.7 | 28.4 | 5069 | inactive |
| DIP-eta (Dpr-interacting protein eta) | DRSC02342 | 3.31 | 4.26 | 6547 | inactive |
| CG31524 | DRSC22014 | 1.94 | 0.82 | 6604 | inactive |
| CG31524 | DRSC28999 | 0.25 | 30.9 | 406 | inactive |
| CG15922 | DRSC15128 | 1.01 | 8.91 | 6666 | inactive |
| GluRIID (Glutamate receptor IID) | DRSC16723 | 2.08 | 5.83 | 7032 | inactive |
| GluRIID (Glutamate receptor IID) | DRSC24866 | 2.82 | 2.26 | 5468 | inactive |
| CkIIbeta2 (Casein kinase II beta2 subunit) | DRSC07361 | 4.96 | 0.73 | 5988 | inactive |
| Cdc7 (Cdc7 kinase) | DRSC18429 | 0.77 | 0.97 | 6359 | inactive |
| Cdc7 (Cdc7 kinase) | DRSC27819 | 9.28 | 5.43 | 6129 | inactive |
| CG31195 | DRSC13440 | 1.58 | 1.99 | 6080 | inactive |
| Utx (Utx histone demethylase) | DRSC02872 | 3.87 | 0.73 | 6357 | inactive |
| GstZ2 (Glutathione S transferase Z2) | DRSC16479 | 20.7 | 15.9 | 5603 | inactive |
| Ntf-2 (Nuclear transport factor-2) | DRSC20552 | 1.08 | 0.88 | 6188 | active |
| Ntf-2 (Nuclear transport factor-2) | DRSC25597 | 0.68 | 3.13 | 5995 | inactive |
